# PubChem BioAssay AID1259414 | Drosophila RNAi Screening Center, 2018
# Purpose: 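Fly genes that alter Wolbachia amount inside host cells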 (primary screen)
# System: Drosophila JW18 cells infected with Wolbachia
# Reagents: long dsRNA against Drosophila genes, 0.25 µg dsRNA per well of a 384-well plate
# Time to read-out: 5 days
# Treatment: cells persistently infected with Wolbachia before knock-down; no added drug
# Read-out: 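Automated imaging of bacterial rRNA staining divided by host cell count, reported as plate-normalised robust z-score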
# Scale: Wolbachia per cell robust z: higher = more Wolbachia per host cell than the plate typical
# Rule for the call: 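Hit when robust z is 1.5 or more, or -1.5 or less, in at least two of three replicates; excludes dsRNAs with several or no targets, genes not expressed in JW18 and well A1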
# The deposit covers about 24,000 reagents; below is a random part of those with a known target gene and a result. Of all reagents, about 1,210 (5%) got an active call. 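Inactive calls also include excluded dsRNAs with several or no targets, genes unexpressed in JW18, and well A1, regardless of score.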 A number with no mark means an inactive call. The numbers tell different reagents against one gene apart. Names joined by + are all predicted targets of the reagent. Reagent sequences are not shown.
The opening 6 entries, to show the layout:
predicted target,dsRNA no.,"Wolbachia per cell robust z, rep 1","Wolbachia per cell robust z, rep 2","Wolbachia per cell robust z, rep 3"
TP53INP (GeneID 38543),1,0.954,0.906,-2.91
TP53INP (GeneID 38543),2,0.566,0.802,1.08
TP53INP (GeneID 38543),3,0.546,-1.21,-13.4
Fkbp59 (GeneID 47762),1,1.63,-0.119,0.271
Fkbp59 (GeneID 47762),2,0.476,0.776,0.453
PDCD-5 (GeneID 39776),1,-2.53,-1.12,0.0169

Main list, from the first entry:
predicted target,dsRNA no.,"Wolbachia per cell robust z, rep 1","Wolbachia per cell robust z, rep 2","Wolbachia per cell robust z, rep 3"
TP53INP (GeneID 38543),1,0.954,0.906,-2.91
TP53INP (GeneID 38543),2,0.566,0.802,1.08
TP53INP (GeneID 38543),3,0.546,-1.21,-13.4
Fkbp59 (GeneID 47762),1,1.63,-0.119,0.271
Fkbp59 (GeneID 47762),2,0.476,0.776,0.453
PDCD-5 (GeneID 39776),1,-2.53,-1.12,0.0169
CG12116 (GeneID 31782),1,-0.0391,-1.71,-0.421
Myo28B1 (GeneID 53515),1,0.817,-0.112,-2.57
Myo28B1 (GeneID 53515),2,-0.736,0.756,1.27
Or83c (GeneID 40744),1,0.264,-0.494,0.426
CG14062 (GeneID 43389),1,1.1,1.07,-1.46
CG14062 (GeneID 43389),2,0.302,0.406,1.13
CG6733 (GeneID 42731),1,-0.092,-1.87,0.417
ctp (GeneID 31405),1,-0.0852,1.22,-8.6
ctp (GeneID 31405),2,0.88,-0.159,0.649
CG31206 (GeneID 318627),1,-1.32,-0.101,0.674
Pgi (GeneID 35886),1,1.44,-0.434,1.19
Pgi (GeneID 35886),2,-0.389,-0.0473,0.967
CG13946 (GeneID 50198),1,-5.67,0.244,-9.96
CG11656 (GeneID 41600),1,0.101,-0.825,-0.0318
CG11656 (GeneID 41600),2,-1.42,-1.19,-0.573
St2 (GeneID 41098),1,1.08,0.736,-0.625
St2 (GeneID 41098),2,-0.183,-1.55,0.286
Bili + CR41504,1,0.132,-0.000668,0.32
CG9801 (GeneID 41044),1,-9.86 (active),-5.95,-1.27
CG15550 (GeneID 43666),1,-0.573,-0.808,-0.632
CG15550 (GeneID 43666),2,0.505,0.109,0.225
CG12118 (GeneID 31857),1,-0.268,0.212,-0.351
RNF220 (GeneID 42690),1,-0.27,0.901,-0.131
RNF220 (GeneID 42690),2,-0.758,-1.1,-1.69
Nsun5 (GeneID 7354421),1,0.703,1.81,-1.64
CG16700 (GeneID 32694),1,-3.07,-0.0982,0.244
CG32568 (GeneID 32659),1,0.11,1.04,-0.631
CG31816 (GeneID 318960),1,1.14,-0.116,-0.185
ste24b (GeneID 36907),1,-0.174,-4.97,-3.02
ste24b (GeneID 36907),2,1.49,2.66,1.53
Gclc (GeneID 53581),1,0.0689,1.66,0.714
ReepA (GeneID 37643),1,-0.0056,-0.0174,0.348
ReepA (GeneID 37643),2,0.17,0.144,-0.171
ReepA (GeneID 37643),3,0.706,0.608,1.48
ReepA (GeneID 37643),4,0.345,0.895,-0.349
tpr (GeneID 37486),1,-0.93,0.436,-0.598
tpr (GeneID 37486),2,0.732,0.377,0.77
CG32023 (GeneID 317827),1,-0.646,1.2,0.561
CG3517 (GeneID 42324),1,0.643,0.314,0.317
CG3517 (GeneID 42324),2,-0.594,-1.5,-1.43
Dlc90F (GeneID 42199),1,0.0656,-0.945,1.83
Faf2 (GeneID 35129),1,1.18,1.53,-5.79
sad (GeneID 44858),1,0.686,-0.154,-0.326
sad (GeneID 44858),2,-3.15,-1.21,-6.4
Prosalpha5 (GeneID 36951),1,1.62,1.47,1.19
CG33654 (GeneID 3771825),1,0.618,0.553,2.72
CG15728 (GeneID 32214),1,0.298,1.25,-1.75
CG15728 (GeneID 32214),2,-0.195,-0.896,-0.964
CG15728 (GeneID 32214),3,-0.971,-1.48,-0.027
CG1647 (GeneID 43401),1,-1.11,0.202,-2.1
CG15539 (GeneID 43627),1,-0.528,-0.128,0.0504
CG31600 (GeneID 318834),1,0.564,0.976,1.74
CG31600 (GeneID 318834),2,0.137,-1.15,0.115
CG4477 (GeneID 39058),1,-2.87,1.21,0.979
prd (GeneID 34629),1,-0.16,0.491,-1.46
CG9107 (GeneID 33843),1,0.53,-0.164,1.22
Taldo (GeneID 37804),1,-0.603,1.44,0.647
Taldo (GeneID 37804),2,0.483,0.841,0.14
beta-PheRS (GeneID 42888),1,-1.03,-0.987,0.102
beta-PheRS (GeneID 42888),2,-1.91,-0.867,-0.721
Nop56 (GeneID 42633),1,0.834,-0.493,-0.488
CG42364 (GeneID 7354408),1,-2.52,0.198,-1.37
